Measurements reported in US10066238B2, “Methods for producing antibodies” (priority 2013, dated 2018).
Where two headings read alike, the source gives them in different places.

Tests used:
[1] = test system: ZM214M.PL15 pseudovirus (clade C); test: HIV-1 neutralization assay (Env-pseudotyped virus, Luc reporter); format: cell-based
[2] = test system: ZM214M.PL15 pseudovirus (clade C); settings: reported by Wu et al. (16); cited from earlier work

In the case of griffithsin [GRFT], the IC50 ([1]; TZM-b1 cells, GRFT, MVC concentration in combination, mean ± SEM, read-out: IC50 in a respective combination with VRC01p) is reported as 0.22 ± 0.11 nM, the IC50 ([1]; TZM-b1 cells, GRFT, MVC, mean ± SEM, read-out: IC50 when used individually) is reported as 1.19 ± 0.59 nM and the “dose reduction index (DRI) in a respective combination with VRC01p” value ([1]; mean ± SEM) is reported as 2.35 ± 0.13.

For maraviroc [MVC], the “dose reduction index (DRI) in a respective combination with VRC01p” value ([1]; mean ± SEM) was 3.15 ± 1.04, the IC50 ([1]; read-out: IC50 in a respective combination with VRC01p, TZM-b1 cells, GRFT, MVC concentration in combination, mean ± SEM) was 3.79 ± 0.18 nM and the IC50 ([1]; read-out: IC50 when used individually, TZM-b1 cells, GRFT, MVC, mean ± SEM) was 12.1 ± 4 nM.

For “VRC01HEK: HEK293F cell-produced bnMAb VRC01”, the “VRC01HEK IC50” value [2] is listed as 0.44 µg/mL.
